# Test results: patent US11613546B2, “Substituted pyridotriazine compounds and uses thereof” (Gilead Sciences, Inc., priority 2021, dated 2023)
# System: pLai RLuc reporter virus
# Test: HIV MT-4 serum shift antiviral reporter assay
# Type: cell-based
# Conditions: EC50 (HS/CCM)/EC50 (CCM) fold shift, measure of protein binding
# Description: To quantify the amount of protein binding to human serum, compounds were serially diluted (1:3) in DMSO and acoustically transferred onto 384-well assay plates via a Labcyte ECHO robot. Each plate contained up to 8 test compounds, including negative and positive controls, (DMSO, 5 μM AZT respectively). Assay plates were prepared in duplicate, and tested in either CCM (cell culture media) or HS/CCM (human serum/cell culture media). MT-4 cells were first pre-infected with pLai RLuc reporter virus for 2 h at 37° C., then further diluted in either CCM (RPMI media, 10% FBS, 1% P/S) or HS/CCM (RPMI media, 10% FBS, 50% HS, 1% P/S), and subsequently added to each plate using a Biotek Micro Flow dispenser. After a 72-h incubation in a humidified and temperature controlled incubator (37° C.), Renilla Glo (Promega) was added to all assay plates and chemiluminescence read using an Envision plate-reader. EC50 values were defined as the compound concentration that causes a 50% decrease in luminescence signal, and were calculated using a sigmoidal dose-response model to generate curve fits. To determine the amount of protein binding, EC50 fold shifts (or EC50 shifts) were calculated by dividing EC50 (HS/CCM)/EC50 (CCM).
row,Structure (SMILES),RLUC Shift
1,"C[C@@H]1CC[C@H](CF)N2CN1n1cc(C(=O)NCc3ccc(F)cc3F)c(=O)c(O)c1C2=O [Example C98, (1S,2R,5R)—N-(2,4-difluorobenzyl)-5-(fluoromethyl)-8-hydroxy-2-methyl-7,9-dioxo-2,3,4,5,7,9-hexahydro-1,6-methanopyrido[1,2-b][1,2,5]triazonine-10-carboxamide]",450
2,"O=C(NCc1c(F)cc(F)cc1F)c1cn2c(c(O)c1=O)C(=O)N1CCCCN2C1 [Example C108, (1R)-8-hydroxy-7,9-dioxo-N-(2,4,6-trifluorobenzyl)-2,3,4,5,7,9-hexahydro-1,6-methanopyrido[1,2-b][1,2,5]triazonine-10-carboxamide]",212
3,"O=C(NCc1c(F)cc(F)cc1F)c1cn2c(c(O)c1=O)C(=O)N1CCCCN2C1 [Example C109, (1S)-8-hydroxy-7,9-dioxo-N-(2,4,6-trifluorobenzyl)-2,3,4,5,7,9-hexahydro-1,6-methanopyrido[1,2-b][1,2,5]triazonine-10-carboxamide]",18
